Compound potency records, mixed from different reports. Data source: NIAID ChemDB in PubChem.

All rows: host cell toxicity; cells: MT-2; read-out: CC50

Blank or dashed fields: not listed here. Conditions beyond the fields shown may differ between rows. CCn is the concentration with n% toxicity to the cells.

SMILES,read by,value
CCCCCCCCCCCCCCCCCCOC[C@H](COP(=O)(O)C(=O)O)OCC,MTT,743 µM
Nc1ccn([C@H]2CC[C@@H](CO)O2)c(=O)n1,-,>100 µM
COc1ccc(S(=O)(=O)N(CC(C)C)C[C@@H](O)[C@H](Cc2ccccc2)NC(=O)O[C@H]2CO[C@@H]3O[C@H]4OCC[C@H]4[C@@H]32)cc1,MTT,38.7 µM
C=C(C(=O)O)[C@@H]1CC[C@]2(C)CC[C@]3(C)[C@H](CC[C@@H]4[C@@]5(C)CCC(=O)C(C)(C)[C@@H]5CC[C@]43C)[C@@H]12,ATP,100 µM
O=c1[nH]cnc2c1ncn2[C@H]1CC[C@@H](CO)O1,XTT,1090 µM
CCCC[C@@H]1NC(=O)[C@@H](NC(=O)[C@H](CO)NC(=O)OC(C)(C)C)CCCCOc2ccc(cc2)C[C@@H]([C@H](O)CN(CCC(C)C)S(=O)(=O)c2ccc(NC(C)=O)cc2)NC1=O,trypan blue,9.435 µM
Cn1nc(NS(C)(=O)=O)c2c(Cl)ccc(-n3c([C@H](Cc4cc(F)cc(F)c4)NC(=O)Cn4nc(C(F)F)c5c4C(F)(F)[C@@H]4C[C@H]54)nc4cc(OCC5CCC5)ccc4c3=O)c21,XTT,>1 µM
O=C(/C=C/c1ccc(O)c(O)c1)Nc1cc(NC(=O)/C=C/c2ccc(O)c(O)c2)cc(C(=O)O)c1,neutral red,>47 µM
COc1cc([C@@H]2c3cc4c(cc3[C@H](O)[C@H]3COC(=O)[C@H]23)OCO4)cc(OC)c1OC,-,0.0022 µg/mL
CCCCCCCCCCCCCCCCCCOC[C@H](CO)OC,MTT,335 µM
CC(C)OC(=O)[C@H](C)N[P@@](=O)(CO[C@H](C)Cn1cnc2c(N)ncnc21)Oc1ccccc1,XTT / absorbance,>100 µM
C[C@H](Cn1cnc2c(N)ncnc21)OCP(=O)(OCOC(=O)C(C)(C)C)OCOC(=O)C(C)(C)C,-,40 µM
CC(C)OC(=O)[C@H](C)NP(=O)(CO[C@H](C)Cn1cnc2c(N)ncnc21)Oc1ccccc1,XTT / absorbance,95 µM
Cc1cn([C@H]2C[C@H](N=[N+]=[N-])[C@@H](COC(=O)C(=O)NC(Cc3ccccc3)C(=O)O)O2)c(=O)[nH]c1=O,sulforhodamine,400 µM
Cc1cc2c(C(C)C)c(C)c(O)c(C=O)c2c(O)c1-c1c(C)cc2c(C(C)C)c(O)c(O)c(C=O)c2c1O,MTT,16.27 µM
CC(C)(C)NC(=O)[C@@H]1C[C@@H]2CCCC[C@@H]2CN1C[C@@H](O)[C@H](Cc1ccccc1)NC(=O)[C@H](CC(N)=O)NC(=O)c1ccc2ccccc2n1,MTT,25 µM
CN(C)CCOc1cc2c(c3ccccc13)-c1ccccc1C2=O,ATP / luminescence,28.1 µM
CC(C)CN(C[C@@H](O)[C@H](Cc1ccccc1)NC(=O)[C@H](CC(N)=O)NC(=O)c1ccc2ccccc2n1)C(=O)NC(C)(C)C,-,>100 µg/mL
CCNc1cccnc1N1CCN(C(=O)c2cc3cc(OC)ccc3[nH]2)CC1,-,28 µM
O=C(/C=C/C=C/c1ccc(Br)cc1)[Se]c1ccccc1,MTT,29.5 µM
COc1cc(C[C@@]2(O)C(=O)OC[C@@H]2Cc2ccc(OC)c(OC)c2)ccc1O,-,1.12 µg/mL
Cc1cc2c(C(C)C)c(O)c(O)c(C=O)c2c(O)c1-c1c(C)cc2c(C(C)C)c(O)c(O)c(C=O)c2c1O,MTT,16.27 µM
CC(C)(C)c1ccc2c(=O)n(-c3ccc(Cl)c4c(NS(C)(=O)=O)nn(CC(F)(F)F)c34)c([C@H](Cc3cc(F)cc(F)c3)NC(=O)Cn3nc(C(F)F)c4c3C(F)(F)[C@@H]3C[C@H]43)nc2c1,XTT,>1 µM
Cc1cn([C@H]2C[C@H](F)[C@@H](CP(=O)(O)O)O2)c(=S)[nH]c1=O,-,>200 µM
C=C(COCCc1ccccc1)[C@@H]1CC[C@]2(C(=O)NC(CC(C)C)C(=O)O)CC[C@]3(C)[C@H](CC[C@@H]4[C@@]5(C)CC[C@H](O)C(C)(C)[C@@H]5CC[C@]43C)[C@@H]12.CBr,XTT,20.8 µM
Cc1cn([C@H]2C[C@H](F)[C@@H](COP(=O)(O)O)O2)c(=S)[nH]c1=O,-,>200 µM
O=C(O)[C@H](Cc1ccc(O)c(O)c1)[C@@H](Cc1ccc(O)c(O)c1)C(=O)O,neutral red,>71 µM
CNc1nc(N)nc2c1ncn2[C@H]1CC[C@@H](CO)O1,-,>20 µM
Cc1cccc(C)c1OCC(=O)N[C@@H](Cc1ccccc1)[C@@H](O)C[C@H](Cc1ccccc1)NC(=O)[C@H](C(C)C)N1CCCNC1=O,-,26.8 µM
CC1=CC2=C(C(C)C)C(O)C(=O)/C(=C\NC(C)(C)C(=O)O)C2C(O)=C1c1c(C)cc2c(C(C)C)c(O)c(O)c(C=NC(C)(C)C(=O)O)c2c1O.[Na+].[Na+],MTT,77.35 µM
NC(=O)C(c1ccccc1)(c1ccccc1)[C@H]1CCCN(CCOc2ccccc2)C1,XTT,31 µM
C=C(COCCc1ccccc1)[C@@H]1CC[C@]2(C(=O)NC(CC(C)C)C(=O)O)CC[C@]3(C)[C@H](CC[C@@H]4[C@@]5(C)CC[C@H](O)C(C)(C)[C@@H]5CC[C@]43C)[C@@H]12.CCl,XTT,34.6 µM
C[C@@H](Cn1cnc2c(N)nc(N)nc21)OCP(=O)(OCOC(=O)C(C)(C)C)OCOC(=O)C(C)(C)C,-,9 µM
CC[C@H](C)[C@H](N)C(=O)O.[Na+],MTT,65.62 µM
Cc1cn([C@H]2C[C@H](N=[N+]=[N-])[C@@H](COC(=O)C(=O)N[C@H](C(=O)O)C(C)C)O2)c(=O)[nH]c1=O,sulforhodamine,500 µM
Nc1ncnc2c1ncn2C[C@@H](CF)OCP(=O)(O)O,-,>100 µM
CC(C)CN(C[C@@H](O)[C@H](Cc1ccccc1)NC(=O)O[C@H]1CCOC1)S(=O)(=O)c1ccc(N)cc1,-,>100 µM
O=C(CCc1ccccc1)[Se]c1ccccc1,MTT,34.7 µM
CCCCC(=O)N[C@H]1CCCCOc2ccc(cc2)C[C@@H]([C@H](O)CN(CCC(C)C)S(=O)(=O)c2ccc(NC(C)=O)cc2)NC(=O)[C@H](CCCC)NC1=O,trypan blue,9.86 µM
CC(C)[C@H](NC(=O)OCc1ccccc1)C(=O)N[C@@H](Cc1ccccc1)[C@@H](O)[C@H](O)[C@H](Cc1ccccc1)NC(=O)[C@@H](NC(=O)OCc1ccccc1)C(C)C,-,65 µM
C[C@H](CCC(=O)O)[C@H]1CC[C@H]2[C@@H]3[C@H](OC(=O)/C=C/c4ccc(O)c(O)c4)C[C@@H]4C[C@H](OC(=O)/C=C/c5ccc(O)c(O)c5)CC[C@]4(C)[C@H]3C[C@H](OC(=O)/C=C/c3ccc(O)c(O)c3)[C@]12C,neutral red,>11.4 µM
Nc1nc2c(ncn2[C@H]2CC[C@@H](CO)O2)c(=O)[nH]1,XTT,830 µM
COC(=O)N[C@H](C(=O)N[C@@H](Cc1ccccc1)[C@@H](O)CN(Cc1ccc(-c2ccccn2)cc1)NC(=O)[C@@H](NC(=O)OC)C(C)(C)C)C(C)(C)C,-,32.4 µM
Cc1cn([C@H]2C[C@H](N=[N+]=[N-])[C@@H](COC(=O)C(=O)N[C@@H](CC(C)C)C(=O)O)O2)c(=O)[nH]c1=O,trypan blue,10 µM
O=C(/C=C/c1ccc(O)c(O)c1)[Se]c1ccccc1,MTT,33.4 µM
NC(=O)C(c1ccccc1)(c1ccccc1)C1CCCN(CCOc2ccccc2)C1,XTT,54 µM
COc1cc([C@@H]2c3cc4c(cc3[C@H](O)[C@H]3COC(=O)[C@@H]23)OCO4)cc(OC)c1O,-,>0.01 µg/mL
C[C@H](Cn1cnc2c(N)nc(N)nc21)OCP(=O)(O)O,-,350 µM
NC(=O)C(c1ccccc1)(c1ccccc1)C1CCCN(CCCOCc2ccccc2)C1,XTT,51 µM
Nc1nc2c(ncn2[C@H]2CC[C@@H](CO)O2)c(=O)[nH]1,-,>20 µM
COc1ccc(S(=O)(=O)N(CC(C)C)C[C@@H](O)[C@H](Cc2ccc(OC)c(Cl)c2)NC(=O)O[C@H]2CO[C@H]3OCC[C@H]32)cc1,-,35.7 µM
Cc1cn([C@H]2C[C@H](N=[N+]=[N-])[C@@H](CO)O2)c(=O)[nH]c1=O,-,109.4 µM
CN(C)c1nc(N)nc2c1ncn2[C@H]1CC[C@@H](CO)O1,-,>20 µM
CCCc1cc(=O)oc2c3c(c4c(c12)OC(C)(C)C=C4)O[C@H](C)[C@@H](C)[C@@H]3O,-,8.9 µM
CCCc1c([Se]c2ccccc2)n(COCC)c(=O)[nH]c1=O,MTT,>84 µM
CC(C)[C@H](N)C(=O)O.[Na+],MTT,62.41 µM
CC[C@H](C)[C@H](NC(=O)C(=O)OC[C@H]1O[C@@H](n2cc(C)c(=O)[nH]c2=O)C[C@@H]1N=[N+]=[N-])C(=O)O,trypan blue,11 µM
CN(C)C(=O)C(c1ccccc1)(c1ccccc1)[C@H]1CCCN(CCc2ccc3c(c2)CCO3)C1,XTT,47 µM
Nc1nc2c(ncn2[C@H]2CO[C@@H](CO)O2)c(=O)[nH]1,XTT,>500 µM
CC(C)(C)NC(=O)[C@@H]1C[C@@H]2CCCC[C@@H]2CN1C[C@@H](O)[C@H](Cc1ccccc1)NC(=O)[C@H](CC(N)=O)NC(=O)c1ccc2ccccc2n1,MTT,16.4 µM
C[C@H](CCC(=O)O)[C@H]1CC[C@H]2[C@@H]3CC[C@@H]4C[C@H](OC(=O)/C=C/c5ccc(O)c(O)c5)CC[C@]4(C)[C@H]3C[C@H](OC(=O)/C=C/c3ccc(O)c(O)c3)[C@]12C,neutral red,>6.4 µM
O=C(/C=C/c1ccc(O)c(O)c1)O[C@@H]1CC(O)(C(=O)O)C[C@@H](OC(=O)/C=C/c2ccc(O)c(O)c2)C1O,-,>150 µg/mL
CCCCCCCCCCCCCCCCCCOC[C@H](COP(=O)(O)C(=O)O)OC,MTT,267 µM
O=C(/C=C/c1ccccc1)[Se]c1ccccc1,-,33.2 µM
Nc1c(S(=O)(=O)c2ccc(Cl)cc2)cc2c(=O)n3ccccc3nc2[n+]1C1CCCCC1,ATP / luminescence,>100 µM
Nc1ncnc2c1ncn2CCOCP(=O)(O)O,-,157 µM
CCC1(c2ccccc2)Sc2ccccc2-n2cccc2C1=O,-,110 µM
COc1cc([C@@H]2c3cc4c(cc3C[C@H]3COC(=O)[C@@H]32)OCO4)cc(OC)c1OC,-,0.00065 µg/mL
CCCCCCCCCCCCCCCCCCOC[C@@H](O)COP(=O)(O)C(=O)O,MTT,1093 µM
COc1cc(/C=C/C(=O)[Se]c2ccccc2)ccc1O,MTT,35.1 µM
CCN(CC)CCNc1cc(-c2cccs2)nc2ccccc12,ATP / luminescence,50 µM
COC(=O)N[C@H](C(=O)N[C@@H](Cc1ccccc1)[C@@H](O)CN(Cc1ccc(-c2ccccn2)cc1)NC(=O)[C@@H](NC(=O)OC)C(C)(C)C)C(C)(C)C,-,28.6 µM
CC1=CC2=C(C(C)C)C(O)C(=O)/C(=C\N[C@@H](C(=O)O)C(C)C)C2C(O)=C1c1c(C)cc2c(C(C)C)c(O)c(O)c(C=N[C@H](C(=O)O)C(C)C)c2c1O.[Na+].[Na+],MTT,62.41 µM

10 of the rows above, restated:

{"SMILES": "CN(C)C(=O)C(c1ccccc1)(c1ccccc1)[C@H]1CCCN(CCc2ccc3c(c2)CCO3)C1", "read by": "XTT", "value": "47 µM"}
{"SMILES": "CC[C@H](C)[C@H](NC(=O)C(=O)OC[C@H]1O[C@@H](n2cc(C)c(=O)[nH]c2=O)C[C@@H]1N=[N+]=[N-])C(=O)O", "read by": "trypan blue", "value": "11 µM"}
{"SMILES": "COc1cc([C@@H]2c3cc4c(cc3[C@H](O)[C@H]3COC(=O)[C@@H]23)OCO4)cc(OC)c1O", "value": ">0.01 µg/mL"}
{"SMILES": "C=C(C(=O)O)[C@@H]1CC[C@]2(C)CC[C@]3(C)[C@H](CC[C@@H]4[C@@]5(C)CCC(=O)C(C)(C)[C@@H]5CC[C@]43C)[C@@H]12", "read by": "ATP", "value": "100 µM"}
{"SMILES": "Cc1cccc(C)c1OCC(=O)N[C@@H](Cc1ccccc1)[C@@H](O)C[C@H](Cc1ccccc1)NC(=O)[C@H](C(C)C)N1CCCNC1=O", "value": "26.8 µM"}
{"SMILES": "Nc1ccn([C@H]2CC[C@@H](CO)O2)c(=O)n1", "value": ">100 µM"}
{"SMILES": "O=C(/C=C/c1ccc(O)c(O)c1)Nc1cc(NC(=O)/C=C/c2ccc(O)c(O)c2)cc(C(=O)O)c1", "read by": "neutral red", "value": ">47 µM"}
{"SMILES": "Cc1cn([C@H]2C[C@H](N=[N+]=[N-])[C@@H](COC(=O)C(=O)NC(Cc3ccccc3)C(=O)O)O2)c(=O)[nH]c1=O", "read by": "sulforhodamine", "value": "400 µM"}
{"SMILES": "CC(C)(C)NC(=O)[C@@H]1C[C@@H]2CCCC[C@@H]2CN1C[C@@H](O)[C@H](Cc1ccccc1)NC(=O)[C@H](CC(N)=O)NC(=O)c1ccc2ccccc2n1", "read by": "MTT", "value": "16.4 µM"}
{"SMILES": "Nc1ncnc2c1ncn2CCOCP(=O)(O)O", "value": "157 µM"}